Anti-infective test results gathered from many reports (values: NIAID ChemDB through PubChem).

All rows: tests in culture; organism: HIV-1; read by: cytopathic effect / MTT; measure: EC50

ECn: concentration that inhibits the pathogen or its effect by n%. An empty or dashed field is not shown. Neighbouring rows are from separate reports.

| structure | changes | strain or isolate | conditions | cell line | value |
|---|---|---|---|---|---|
| CCCc1cc(=O)oc2c3c(c4c(c12)OC(C)(C)C=C4)O[C@H](C)[C@@H](C)C3=O | - | - | - | CEM + CEM-SS | 0.68 µM |
| COc1cc(Cc2cnc(/N=C3\C(=O)N(CN4CCN(c5ccc(Cl)cc5)CC4)c4ccc(F)cc43)nc2N)cc(OC)c1OC | - | IIIB | - | MT-4 | 36.2 µg/mL |
| Cc1cn([C@@H]2O[C@@H](CO)[C@H](O)[C@H]2O)c(=O)[nH]c1=O | - | IIIB | - | MT-4 | >1000 µM |
| O=C(Nc1sccc1S(=O)(=O)c1ccccc1)C(F)(F)F | - | IIIB | - | CEM + CEM/O | >8 µg/mL |
| C=C(C)[C@@H]1CC[C@]2(C(=O)NCCCCCCCC(=O)N[C@@H](CC(C)C)[C@@H](O)CC(=O)O)CC[C@]3(C)[C@H](CC[C@@H]4[C@@]5(C)CC[C@H](O)C(C)(C)[C@@H]5CC[C@]43C)[C@@H]12 | - | LAI | - | MT-4 | 0.04 µM |
| CC(C)CCCCCCCCCCCN(C)OP(=O)(O)N(CC(N)=O)P(=O)(O)OC1C(OC[C@H]2O[C@@H](n3ccc(=O)[nH]c3=O)[C@H](O)[C@@H]2O)=C(CO)C(O)C1O | - | IIIB | - | MOLT-4 | 0.4 µM |
| CC(C)CCC[C@@H](C)[C@H]1CC[C@H]2[C@@H]3CC[C@H]4C[C@@H](NC(=O)C=C(c5cc(Cl)c(O)c(C(=O)O)c5)c5cc(Cl)c(O)c(C(=O)O)c5)CC[C@]4(C)[C@H]3CC[C@]12C | - | IIIB | - | MT-4 | 15.1 µM |
| CC(=O)OCC(=O)O[C@@H]1[C@H]2[C@@H](OC(=O)c3ccccc3)[C@@H](C)C[C@]2(O)[C@H](OC(C)=O)[C@]2(C)C(OC(C)=O)[C@@]1(OC(C)=O)C[C@H]1C(=O)C(C)(C)C[C@@H]12 | - | IIIB | - | MT-4 | >100 µg/mL |
| CCOCn1c(Cc2cc(Cl)cc(Cl)c2)c(CC)c(=O)[nH]c1=O | RT-K103N Y181C | NNRTI-resistant (RT K103N Y181C) A17 | - | MT-4 | >10 µM |
| COc1cc(Cc2cnc(/N=C3\C(=O)N(CN4CCN(Cc5ccccc5)CC4)c4ccc(F)cc43)nc2N)cc(OC)c1OC | - | IIIB | - | MT-4 | >139.3 µg/mL |
| O=C1CSC(c2c(Cl)cccc2Cl)N1Cc1ccco1 | - | IIIB | - | MT-4 | 0.204 µM |
| O=C(NCc1ccc2c(c1)OCO2)c1cc2cc3c(cc2[nH]1)OCO3 | - | - | - | CEM | >200 µM |
| Nc1ncnc2c1ncn2[C@@H]1O[C@@H](CO)[C@H](O)[C@H]1O | - | IIIB | - | MT-4 | >100 µM |
| CC(=O)NCNC(=O)CC(N)CCCN | - | IIIB | - | MT-4 | >100 µg/mL |
| O=[N+]([O-])c1cnn2c1nnc1ccccc12 | - | IIIB | - | MT-4 | >0.8 µM |
| COc1c(Cl)cc(C(=CCC(=O)N[C@@H]2CC[C@@]3(C)[C@@H](CC[C@@H]4[C@@H]3CC[C@]3(C)[C@@H]([C@H](C)CCCC(C)C)CC[C@@H]43)C2)c2cc(Cl)c(OC)c(C(=O)O)c2)cc1C(=O)O | - | IIIB | - | MT-4 | >6 µM |
| CCN(CC)CN1C(=O)/C(=N\c2ncc(Cc3cc(OC)c(OC)c(OC)c3)c(N)n2)c2cc(F)ccc21 | - | IIIB | - | MT-4 | >141 µg/mL |
| CCc1c(Cc2cc(Cl)cc(Cl)c2)n(COC/C(C)=C/c2ccccc2)c(=O)[nH]c1=O | RT-Y181C | NNRTI-resistant (RT Y181C) N119 | - | MT-4 | 2 µM |
| CCC(C)[C@@H](C(=O)N[C@@H](Cc1ccccc1)[C@H](O)CN(CC(C)C)S(=O)(=O)c1ccc(/C=N/O)cc1)N1CCN(Cc2cccc(C)n2)C1=O | - | - | 50% human serum | MT-4 | 0.024 µM |
| O=C(Nc1sccc1S(=O)(=O)c1ccccc1)c1ccccc1 | - | IIIB | - | CEM + CEM/O | >40 µg/mL |
| C[C@H]1[C@H](C)Oc2c3c(c4c(-c5ccccc5)cc(=O)oc4c2[C@H]1O)OC(C)(C)C=C3 | - | - | - | CEM + CEM-SS | 0.62 µM |
| O=[N+]([O-])c1cnn2c1n[n+]([O-])c1ccccc12 | - | IIIB | - | MT-4 | >1.8 µM |
| COC(=O)c1ccccc1S(=O)(=O)c1cc(Br)sc1NC=O | - | IIIB | - | CEM + CEM/O | >8 µg/mL |
| Cc1cc(S(=O)(=O)Nc2nc3ncccc3[nH]2)c(S)cc1Cl | - | - | - | CEM + CEM-SS | 32.1 µM |
| COc1cc(Cc2cnc(/N=C3\C(=O)N(CN4CCN(C)CC4)c4ccc(F)cc43)nc2N)cc(OC)c1OC | - | IIIB | - | MT-4 | >106.7 µg/mL |
| COc1cc2c(c(O)c1OC)-c1c(cc(OC)c(OC)c1O)C[C@H](C)[C@H](C)C2 | - | IIIB | - | MT-4 | 27.6 µM |
| CNc1nc2ccc(S(=O)(=O)N(CC(C)C)C[C@@H](O)[C@H](Cc3ccccc3)NC(=O)O[C@H]3CCOC3)cc2s1 | PR-L10F M46I M71V I84V | F | - | MT-4 | 0.794 µM |
| O=C(NCCCCCCNC(=O)c1cc2cc3c(cc2[nH]1)OCO3)c1cc2cc3c(cc2[nH]1)OCO3 | - | - | - | CEM | >200 µM |
| CC(C)CN(C[C@@H](O)[C@H](Cc1ccccc1)NC(=O)[C@H](C(C)C)N1CC(=O)N(Cc2ccccc2)C1=O)S(=O)(=O)c1ccc(/C=N/O)cc1 | - | - | 50% human serum | MT-4 | 0.025 µM |
| CC(=O)OC1[C@@]2(OC(C)=O)CC3=C([C@H](OC(C)=O)C(C)(C)C3=O)[C@]1(C)[C@H](OC(C)=O)[C@@]1(O)C[C@H](C)[C@H](OC(=O)c3ccccc3)[C@@H]1[C@H]2OC(C)=O | - | IIIB | - | MT-4 | >100 µg/mL |
| CC1COc2c(N3CCN(C)CC3)c(F)cc3c(=O)c(C(=O)O)cn1c23 | - | IIIB | - | MT-4 | >200 µM |
| COc1ccccc1CNC(=O)C1=Cc2ccncc2CC1 | - | RF | - | CEM + CEM-SS | >181 µM |
| O=[N+]([O-])c1ccc2c(c1)[n+]([O-])nc1c(Br)cnn12 | - | IIIB | - | MT-4 | >200 µM |
| CC(C)CN(C[C@@H](O)[C@H](Cc1ccccc1)NC(=O)OC1CCOC1)S(=O)(=O)c1ccc2nc(N)sc2c1 | - | LAI | - | MT-4 | 0.004 µM |
| CC(=O)O[C@@H]1[C@H]2[C@@H](OC(=O)c3ccccc3)[C@@H](C)C[C@]2(O)[C@H](OC(C)=O)[C@@]2(C)[C@@H]3CC(C)(C)C(=O)[C@]3(OC(C)=O)C[C@@]12C | - | IIIB | - | MT-4 | 14 µg/mL |
| Cc1cn([C@H]2C[C@H](N=[N+]=[N-])[C@@H](COP(=O)(O)OCCS[C@@H]3O[C@H](CO)[C@@H](O)[C@H](O)[C@H]3O)O2)c(=O)[nH]c1=O | - | IIIB | - | MT-4 | 0.05 µM |
| O=[N+]([O-])c1ccc2c(c1)nnc1ccnn12 | - | IIIB | - | MT-4 | >30.7 µM |
| CCCc1cc(=O)oc2c1=C1OC(C)(C)CCC1C1O[C@@H](C)[C@H](C)[C@H](O)C=21 | - | - | - | CEM + CEM-SS | 1.6 µM |
| Brc1cnn2c1nnc1ccccc12 | - | IIIB | - | MT-4 | >200 µM |
| O=c1[nH]c(=O)n([C@H]2C[C@H](O)[C@@H](CO)O2)cc1CO | - | - | - | MT-4 | 0.75 µg/mL |
| COc1cc(Cc2cnc(/N=C3\C(=O)N(CN4CCCC4)c4ccc(F)cc43)nc2N)cc(OC)c1OC | - | IIIB | - | MT-4 | >129.6 µg/mL |
| CC(C)CCC[C@@H](C)[C@H]1CC[C@H]2[C@@H]3CC[C@H]4C[C@H](NC(=O)C=C(c5cc(Cl)c(O)c(C(=O)O)c5)c5cc(Cl)c(O)c(C(=O)O)c5)CC[C@]4(C)[C@H]3CC[C@]12C | - | IIIB | - | MT-4 | >24.4 µM |
| C=C(C)[C@@H]1CC[C@]2(C(=O)NCCCCCCCC(=O)N[C@@H](CC(C)C)[C@@H](O)CC(=O)O)CC[C@]3(C)[C@H](CC[C@@H]4[C@@]5(C)CC[C@H](O)C(C)(C)[C@@H]5CC[C@]43C)[C@@H]12 | - | ELI | - | CEM + CEM-4 | >5 µM |
| Cc1cn([C@H]2C[C@H](N=[N+]=[N-])[C@@H](COP(=O)(OCCSC(=O)C(C)(C)C)OCCSC(=O)C(C)(C)C)O2)c(=O)[nH]c1=O | - | IIIB | - | MT-4 | 0.81 µM |
| CCc1c(Cc2cc(Cl)cc(Cl)c2)n(COC/C=C/c2ccccc2)c(=O)[nH]c1=O | - | IIIB | - | MT-4 | 0.04 µM |
| CC(=O)NS(=O)(=O)c1c(C)cc(C)c(-c2c3nc(c(-c4c(C)cc(C)c(S(=O)(=O)NC(C)=O)c4C)c4ccc([nH]4)c(-c4c(C)cc(C)c(S(=O)(=O)NC(C)=O)c4C)c4nc(c(-c5c(C)cc(C)c(S(=O)(=O)NC(C)=O)c5C)c5ccc2[nH]5)C=C4)C=C3)c1C | - | IIIB | - | MT-4 | 9 µg/mL |
| CC(C)CN(C[C@@H](O)[C@H](Cc1ccccc1)NC(=O)OC1COC2OCCC12)S(=O)(=O)c1ccc2nc(N)sc2c1 | - | LAI | - | MT-4 | 0.005 µM |
| O=C(NCCc1ccc(O)c(O)c1)c1cc2cc(O)c(O)cc2[nH]1 | - | - | - | CEM | >10 µM |
| Nc1sccc1S(=O)(=O)c1ccc(F)cc1 | - | IIIB | - | CEM + CEM/O | >8 µg/mL |
| N#Cc1cnn2c1n[n+]([O-])c1cc([N+](=O)[O-])ccc12 | - | IIIB | - | MT-4 | >1 µM |
| CC(C)CN(C[C@@H](O)[C@H](Cc1ccccc1)NC(=O)[C@H](C(C)C)N1CC(=O)N(Cc2ccncc2)C1=O)S(=O)(=O)c1ccc(/C=N/O)cc1 | PR-L10F V32I M46I I47V Q68E I84V | A17 (LPV-resistant) | - | MT-4 | 0.015 µM |
| CC(=O)OC[C@H]1O[C@@H](SCCOP(=O)(O)OC[C@H]2O[C@@H](n3cc(C)c(=O)[nH]c3=O)C[C@@H]2N=[N+]=[N-])[C@H](OC(C)=O)[C@@H](OC(C)=O)[C@@H]1OC(C)=O | - | IIIB | - | MT-4 | 0.05 µM |
| CCc1c(Cc2cc(Cl)cc(Cl)c2)n(COC2CCc3ccccc32)c(=O)[nH]c1=O | RT-Y181C | NNRTI-resistant (RT Y181C) N119 | - | MT-4 | 0.3 µM |
| CCC(C)[C@@H](C(=O)N[C@@H](Cc1ccccc1)[C@H](O)CN(CC(C)C)S(=O)(=O)c1ccc(/C=N/O)cc1)N1CCN(Cc2c(C)ccnc2C)C1=O | PR-L10F V32I M46I I47V Q68E I84V | A17 (LPV-resistant) | - | MT-4 | 0.006 µM |
| Nc1ccn([C@H]2C[C@@H](O)[C@H](CO)O2)c(=O)n1 | - | IIIB | - | MT-4 | >10 µM |
| O=C(NCCc1ccccc1)C1=Cc2ccncc2CC1 | - | IIIB | - | CEM + CEM-SS | >34 µM |
| NCNC(=O)CCC(=O)O | - | IIIB | - | MT-4 | >100 µg/mL |
| Cc1c(O)cccc1C(=O)N[C@@H](Cc1ccccc1)[C@H](O)CN(CC(C)C)S(=O)(=O)c1ccc2nc(N)sc2c1 | - | LAI | - | MT-4 | 0.005 µM |
| O=C(NCCCNC(=O)c1cc2cc(O)c(O)cc2[nH]1)c1cc2cc(O)c(O)cc2[nH]1 | - | - | - | CEM | >3.6 µM |
| CCOC(=O)c1cnn2c1n[n+]([O-])c1cc([N+](=O)[O-])ccc12 | - | IIIB | - | MT-4 | >1.3 µM |
| O=C(NCCc1ccccc1)c1cc2cc3c(cc2[nH]1)OCO3 | - | - | - | CEM | >200 µM |
| CC(C)Oc1ccccc1CNC(=O)c1ccc2cnccc2n1 | - | RF | - | CEM + CEM-SS | >31 µM |

6 of the rows above, restated:

structure | changes | strain or isolate | conditions | cell line | value
O=C(NCCc1ccccc1)c1cc2cc3c(cc2[nH]1)OCO3 | - | - | - | CEM | >200 µM
O=[N+]([O-])c1cnn2c1nnc1ccccc12 | - | IIIB | - | MT-4 | >0.8 µM
C=C(C)[C@@H]1CC[C@]2(C(=O)NCCCCCCCC(=O)N[C@@H](CC(C)C)[C@@H](O)CC(=O)O)CC[C@]3(C)[C@H](CC[C@@H]4[C@@]5(C)CC[C@H](O)C(C)(C)[C@@H]5CC[C@]43C)[C@@H]12 | - | ELI | - | CEM + CEM-4 | >5 µM
Brc1cnn2c1nnc1ccccc12 | - | IIIB | - | MT-4 | >200 µM
CC(C)CN(C[C@@H](O)[C@H](Cc1ccccc1)NC(=O)[C@H](C(C)C)N1CC(=O)N(Cc2ccncc2)C1=O)S(=O)(=O)c1ccc(/C=N/O)cc1 | PR-L10F V32I M46I I47V Q68E I84V | A17 (LPV-resistant) | - | MT-4 | 0.015 µM
O=[N+]([O-])c1cnn2c1n[n+]([O-])c1ccccc12 | - | IIIB | - | MT-4 | >1.8 µM